Usually Ki stands for a dissociation constant, usually derived from enzyme kinetics or from competition with a known ligand. Lower therefore signals tighter binding.

The text below walks through data of ChEMBL document CHEMBL1137295, “Discovery of HIV-1 protease inhibitors with picomolar affinities incorporating N-aryl-oxazolidinone-5-carboxamides as novel P2 ligands” (J Med Chem, 2006).

For test [1], the target named is Human immunodeficiency virus type 1 protease (Human immunodeficiency virus 1, UniProt Q72874, Q7K). Description: Inhibition of wild type HIV1 protease Q7K mutant. A digest of the protocol:
(§1)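 FRET cleavage of Arg-Glu(EDANS)-[…]DABCYL)-Arg, 1 µM. Protease desalted into 20 mM sodium acetate pH 5, about 50 nM apparent by A280. Preincubated with inhibitor in DMSO 20-30 min at room temperature. Buffer 0.1 M NaOAc, 1 M NaCl, 1 mM EDTA, 1 mM DTT, 2% DMSO, 1 mg/mL BSA, pH 4.7. Read 340/490 nm, 30 °C, ~10 min. Ki by nonlinear fit of initial velocity versus inhibitor concentration.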

Test [2] concerns the target Human immunodeficiency virus type 1 protease (Human immunodeficiency virus 1, UniProt Q72874, G48V/I54V/L10I/L63P/V82A). Put plainly: Inhibition of HIV1 protease L10I/G48V/I54V/L63P/V82A mutant. Summed up: as §1
Test [3] concerns the target Human immunodeficiency virus type 1 protease (Human immunodeficiency virus 1, UniProt Q72874, D30N/L63P/N88D). Put plainly: Inhibition of HIV1 protease D30N/L63P/N88D mutant. Summed up: as §1
Test [4] concerns the target Human immunodeficiency virus type 1 protease (Human immunodeficiency virus 1, UniProt Q72874, A71V/G73S/I84V/L10I/L63P/L90M). Description: Inhibition of HIV1 protease L10I/L63P/A71V/G73S/I84V/L90M mutant. A digest of the protocol:
as §1

As to `CC(C)CN(C[C@@H](O)[C@H](Cc1ccccc1)NC(=O)O[C@H]1CCOC1)S(=O)(=O)c1ccc(N)cc1`, the Ki in test [1] turned out to be 0.1 nM; in test [2] it was 0.15 nM; in test [3], 0.21 nM; in test [4] it was 1.4 nM.
